Columns and labels:
[1] = Circular dichroism, α-helix content from θ at 222 nm; assay type: physicochemical; settings: for Helicity%: 25 mM Tris-HCl pH 8.0, 20 °C, 100% helicity for θ = −36,000; for θmre at 222 nm: 25 mM Tris-HCl pH 8.0, around 200 μM peptide, 20 °C, 1 mm cuvette, 3 scans
Method: CD spectra (Figure S2) were recorded on a JASCO J-815 spectropolarimeter from 190 to 260 nm (data pitch of 0.1 nm, continuous scanning mode, 200 nm/min, 3 scans) at 20 °C, using a 1 mm path length cuvette. Baseline was corrected by subtracting the background from the sample spectrum.
Peptides were solubilised in 50 mM Tris-HCl, pH 8.0 buffer at an estimated concentration of 400 μM according to their apparent molecular mass (i.e. M + xTFA with x = number of basic groups). The solutions were then diluted twice (25 mM Tris and around 200 μM peptides final concentrations) with: […]

[2] = Solubility in aqueous assay solutions (observation); settings: aqueous assay conditions, peptide concentrations in the millimolar range; in words

Row | Substance | Helicity% ([1]; 0% TFE) | θmre at 222 nm ([1]; 0% TFE) | Helicity% ([1]; 25% TFE) | θmre at 222 nm ([1]; 25% TFE) | Helicity% ([1]; 50% TFE) | θmre at 222 nm ([1]; 50% TFE) | Solubility of activating peptide [2]
1 | H-arg-O2Oc-Leu-Gln-Lys-Asn-Val-Asn-Leu-Ala-Lys-Tyr-Leu-Leu-OH [Compound 10] | 3% | −1186 deg.cm^2.dmol^−1 | 10% | −3727 deg.cm^2.dmol^−1 | 12% | −4328 deg.cm^2.dmol^−1 | more soluble
2 | H-arg-O2Oc-Val-Asn-Leu-Ala-Lys-Tyr-Leu-Leu-OH [Compound 30] | 4% | −1377 deg.cm^2.dmol^−1 | 10% | −3519 deg.cm^2.dmol^−1 | 10% | −3592 deg.cm^2.dmol^−1 | 

Source: PMC6429459, “The HslV Protease from Leishmania major and Its Activation by C-terminal HslU Peptides” (International Journal of Molecular Sciences, 2019)
